Anti-infective test results gathered from many reports (values: NIAID ChemDB through PubChem).

Shared fields: target-level tests

Inhibition is in % at the dose shown (toxicity tests: loss of growth or viability).

compound,measure,strain or isolate,agent,tested at,target,value
O=C(N[C@@H](Cc1cc2cc(O)ccc2[nH]1)C(=O)O)c1ccc2c(c1)nc(-c1ccoc1)n2C1CCCCC1,IC50,POLIO VIRUS,Poliovirus,,RNA-dependent RNA polymerase,>120 µM
O=C(N[C@@H](Cc1c[nH]c2ccc(-c3nn[nH]n3)cc12)C(=O)O)c1ccc2c(c1)nc(-c1ccoc1)n2C1CCCCC1,IC50,,Poliovirus,,RNA-dependent RNA polymerase,>25 µM
CC(C)CN(CC(C)C)C(=O)N1C[C@@H](N)[C@@H](C(=O)O)C1,IC50,A/TOKYO,Influenza A virus,,Neuraminidase,>50 µM
O=C(O)COc1ccc2[nH]cc(C[C@H](NC(=O)c3ccc4c(c3)nc(-c3ccc(OCC(=O)NCCNC(=S)Nc5ccc(-c6c7ccc(=O)cc-7oc7cc(O)ccc67)cc5C(=O)O)cc3)n4C3CCCCC3)C(=O)O)c2c1,IC50,,Poliovirus,,RNA-dependent RNA polymerase,>25 µM
CCCCCCCCCCCCCCCCCC(=O)OC[C@@H](COP(=O)(O)OCCNCCO[C@@]1(C(=O)O)O[C@@H]([C@H](O)[C@H](O)CO)[C@H](NC(C)=O)[C@@H](O)[C@H]1F)OC(=O)CCCCCCCCCCCCCCCCC,IC50,H1N1 A/swine/Hokkaido/2/81,Influenza A virus,,Sialidase,125 µM
Nc1nc(=O)c2ncn(CCOCP(=O)(O)O)c2c(=O)[nH]1,IC50,,Japanese encephalitis virus,,NTPase/helicase,>500 µM
CC(C)(C)c1cc(Cl)c(O)c(C(N)C(=O)O)c1,Ki,TOKYO/3/67,Influenza A virus,,Neuraminidase,41 µM
O=C(O)CC(NC(=O)c1ccc2c(c1)nc(-c1ccccn1)n2C1CCCCC1)C1(C(=O)O)CCCC1,IC50,,Poliovirus,,RNA-dependent RNA polymerase,>25 µM
O=C(N[C@@H](Cc1ccc(O)cc1)C(=O)O)c1ccc2c(c1)nc(-c1ccoc1)n2C1CCCCC1,IC50,POLIO VIRUS,Poliovirus,,RNA-dependent RNA polymerase,79 µM
COC(=O)COc1ccc(C[C@H](NC(=O)c2ccc3c(c2)nc(-c2ccoc2)n3C2CCCCC2)C(=O)O)cc1,IC50,,Poliovirus,,RNA-dependent RNA polymerase,>25 µM
CCN(C(=O)N1C[C@H](N)[C@](O)(C(=O)O)C1)C(C)C,Ki,TOKYO/3/67,Influenza A virus,,Neuraminidase,0.36 µM
CC(C)N(C(=O)N1C[C@H](C(=O)O)[C@H](NC(=O)N(C)C)C1)C(C)C,IC50,A/TOKYO,Influenza A virus,,Neuraminidase,>50 µM
CCN(C(=O)N1C[C@@H](N)[C@@H](C(=O)O)C1)C(C)C,Ki,A/TOKYO/67,Influenza A virus,,Neuraminidase,1.1 µM
CCCCCCCCCCCCC/C=C/[C@@H](O)[C@H](CO[C@@H]1O[C@H](CO)[C@H](O)[C@H](OS(=O)(=O)O)[C@H]1O)NC(=O)CCCCCCCCCCCCCCCCCCCCCCC,inhibition,H2N2 A/Singapore/1/57,Influenza A virus,200 µM,Sialidase,30%
O=C(O)CCNC(=O)NC1CCCC(NC(=O)c2ccc3c(c2)nc(-c2ccoc2)n3C2CCCCC2)C1,IC50,,Poliovirus,,RNA-dependent RNA polymerase,>25 µM
COC(=O)C1CC(C(=O)O)NC1CNC(C)=O,IC50,A/TOKYO/67,Influenza A virus,,Neuraminidase,0.9 µM
COc1ccc(C(NC(=O)c2ccc3c(c2)nc(-c2ccccn2)n3C2CCCCC2)C(=O)O)cc1OC,IC50,,Poliovirus,,RNA-dependent RNA polymerase,>25 µM
CNC(=O)N1CC(C(=O)O)C(N)C1CNC(C)=O,Ki,A/TOKYO/67,Influenza A virus,,Neuraminidase,470 µM
COc1ccc(C(NC(=O)c2ccc3c(c2)nc(-c2ccc[nH]2)n3C2CCCCC2)C(=O)O)cc1OC,IC50,,Poliovirus,,RNA-dependent RNA polymerase,>25 µM
CCN(C(=O)N1C[C@@H](C(=O)O)[C@@H](N)[C@H]1CNC(C)=O)C(C)C,Ki,A/TOKYO/67,Influenza A virus,,Neuraminidase,69 µM
CCCCCCCCCCCCCCCCCC(=O)OC[C@@H](COP(=O)(O)OCCNCCO[C@@]1(C(=O)O)O[C@@H]([C@H](O)[C@H](O)CO)[C@H](NC(C)=O)[C@@H](O)[C@H]1F)OC(=O)CCCCCCCCCCCCCCCCC,IC50,H2N2 A/Swine/Italy/309/83,Influenza A virus,,Sialidase,150 µM

2 of the rows above, restated:

| compound | measure | strain or isolate | agent | tested at | target | value |
|---|---|---|---|---|---|---|
| CNC(=O)N1CC(C(=O)O)C(N)C1CNC(C)=O | Ki | A/TOKYO/67 | Influenza A virus |  | Neuraminidase | 470 µM |
| CCN(C(=O)N1C[C@@H](C(=O)O)[C@@H](N)[C@H]1CNC(C)=O)C(C)C | Ki | A/TOKYO/67 | Influenza A virus |  | Neuraminidase | 69 µM |

Blank or dashed fields: not listed here. Conditions beyond the fields shown may differ between rows. ICn is the concentration giving n% inhibition.